Pooled drug test results. Numbers come from NIAID ChemDB, via PubChem.

Shared fields: growth or infection tests; agent: Hepatitis B virus; measure: EC50

Neighbouring rows are from separate reports.

structure	strain	cells	method	value
CNC(=O)c1cnc(-n2c(=O)c3c(n4ncc(CC(C)C)c24)CN(C(=O)c2ccc(Br)c(C(F)(F)F)c2)[C@@H](C)C3)cn1		HepG2.117	luminescence	0.05–0.5 µM
COCCCOc1cc2c(cc1C(=O)N(C)C)-c1c(cc(C(=O)O)c(=O)n1C1CC1)C(C)S2(=O)=O		Primary human hepatocytes	antigen / visual reading / absorbance	>0.5 µM
COC(=O)C1=C(C)NC(c2ccccc2)=N[C@H]1c1ccc(F)cc1Cl		HepG2.2.15		>100 µM
COCCCOc1cc2c(cc1COC)-c1c(cc(C(=O)O)c(=O)n1C1CC1)C(C)S2(=O)=O		Primary human hepatocytes	antigen / visual reading / absorbance	>0.5 µM
CCOC(=O)C1=C(CN2CC(F)(F)[C@@H]3[C@H]2CON3CC[C@@](C)(O)C(=O)O)NC(c2nccs2)=N[C@H]1c1cccc(F)c1C		HepG2.2.15	PCR	0.3005 µM
O=C1NCCCn2c1c1n(c2=O)CCN(C(=O)Nc2ccc(F)c(Cl)c2)C1		HepG2.2.15	PCR	>5 µM
CCOC(=O)C1=C(CN2CC(F)(F)[C@H]3[C@@H]2CCN3CC[C@](C)(O)C(=O)O)NC(c2nccs2)=N[C@H]1c1ccc(F)c(F)c1C		HepG2.2.15	PCR	0.007 µM
CNC(=O)c1ccc(-n2c(=O)c3c(n4ncc(CC5CC(F)(F)C5)c24)CN(C(=O)c2ccc(Br)c(Cl)c2)CC3)cc1		HepG2.117	luminescence	0.05–0.5 µM
CCOC(=O)C1=C(CN2CC(F)(F)[C@H]3[C@@H]2CCN3CC[C@@](C)(O)C(=O)O)NC(c2nccs2)=N[C@H]1c1ccc(F)c(F)c1C		HepG2.2.15	PCR	0.011 µM
CC(C)Oc1ccc(-n2c(C(=O)NCc3ccccc3)c3n(c2=O)CCN(C(=O)/C=C/c2ccccc2Cl)C3)cc1		HepG2.117	PCR	>5 µM
CC1=C(C(=O)OC(C)C)C(c2ccccc2Cl)N=C(c2ccccn2)N1		HepG2.2.15		>20 µM
CNc1nnc2cc(-n3c(=O)c4c(n5ncc(Cc6ccccc6)c35)CN(C(=O)c3ccc(Br)c(Cl)c3)CC4)ccn12		HepG2.117	luminescence	≤0.05 µM
CCOC(=O)C1=C(CN2CC(F)(F)[C@@H]3[C@H]2CON3CC[C@@](C)(OC)C(=O)O)NC(c2nccs2)=N[C@H]1c1ccc(F)c(F)c1Cl		HepG2.2.15	PCR	0.026 µM
COC(=O)C1=C(C)N(C(C)=O)C(c2ccccn2)=NC1c1ccccc1Cl		HepG2.2.15		12 µM
COc1ccc(-n2c(C(=O)NCc3cccc(C#N)c3)c3n(c2=O)CCN(C(=O)c2ccc(Br)c(Cl)c2)C3)cc1		HepG2.117	PCR	0.5–5 µM
C[C@@H]1Cc2c(n3ncc(Cc4ccccc4)c3n(-c3ccc(-c4nc(=O)on4C)cc3)c2=O)CN1C(=O)c1ccc(Br)c(C(F)(F)F)c1		HepG2.117	luminescence	≤0.05 µM
N#Cc1cc(C(=O)N2CCn3c(c(C(=O)NCc4ccccc4-c4ncco4)n(-c4ccc(OC5CC5)cc4)c3=O)C2)ccc1Br		HepG2.117	PCR	0.1–0.5 µM
COC(=O)C1=C(C)NC(c2ncccc2C)=N[C@H]1c1ccc(F)cc1Cl		HepG2.2.15		0.8 µM
CNC(=O)c1cnc(-n2c(=O)c3c(n4ncc(Cc5ccccc5)c24)CN(C(=O)c2ccc(Br)c(C(F)(F)F)c2)[C@@H](C)C3)cn1		HepG2.117	luminescence	≤0.05 µM
CC(=O)C1=C(C)NC(c2ccccn2)=NC1c1ccccc1Cl		HepG2.2.15		15 µM
COC(=O)C1=C(CN2CC(F)(F)[C@@H]3[C@H]2CON3C[C@@](C)(O)C(C)(C)C(=O)O)NC(c2nccs2)=N[C@H]1c1ccc(F)c(F)c1C		HepG2.2.15	PCR	0.011 µM
O=C(NCc1cccc2nccnc12)c1c2n(c(=O)n1-c1ccc(OCC(F)(F)F)cc1)CCN(C(=O)c1ccc(Br)c(Cl)c1)C2		HepG2.117	PCR	<0.1 µM
COCCCOc1cc2c(cc1C)-c1c(cc(C(=O)O)c(=O)n1C1CCC1)C(C)S2(=O)=O		Primary human hepatocytes	antigen / visual reading / absorbance	0.1–0.5 µM
COC(=O)C1=C(CN2CC(F)(F)[C@@H]3[C@H]2CON3C[C@@H](OC)C(C)(C)C(=O)O)NC(c2ncoc2C)=N[C@H]1c1ccc(F)cc1Cl		HepG2.2.15	PCR	0.013 µM
C[C@@H]1Cc2c(n3ncc(CC4CC4)c3n(-c3ccc(-c4n[nH]nc4N)cc3)c2=O)CN1C(=O)c1ccc(Br)c(C(F)(F)F)c1		HepG2.117	luminescence	≤0.05 µM
COCCCOc1cc2c(cc1Cl)-c1c(cc(C(=O)O)c(=O)n1C1CC1)C(C1(C)COC1)S2		Primary human hepatocytes	antigen / visual reading / absorbance	0.1–0.5 µM
COC(=O)C1=C(CN2CC(F)(F)[C@@H]3[C@H]2CON3CC[C@](C)(O)C(=O)O)NC(c2nccs2)=N[C@H]1c1ccc(F)c(F)c1C		HepG2.2.15	PCR	0.15 µM
COCCCOc1cc2c(cc1-c1ccc(C)s1)-c1c(cc(C(=O)O)c(=O)n1C1CC1)C(C)S2(=O)=O		Primary human hepatocytes	antigen / visual reading / absorbance	>0.5 µM
CC(=O)Nc1ccc([C@H](C)N2CCn3nc4c(c3C2=O)CN(C(=O)c2ccc(Cl)c(C(F)(F)F)c2)[C@H](C)C4)cc1		HepG2.117	PCR	0.011 µM
COc1ccc(CNC(=O)c2c3n(c(=O)n2Cc2ccccc2)CCN(C(=O)c2ccc(Br)c(Cl)c2)C3)cc1		HepG2.2.15	PCR	>5 µM
C[C@@H]1Cc2nn3c(c2CN1C(=O)c1ccc(Cl)c(C#N)c1)C(=O)N(Cc1ccc(S(F)(F)(F)(F)F)cc1)CC3		HepG2.117	PCR	0.113 µM
CCNC(=O)CCC1=C(C(=O)OC)C(c2ccccc2Cl)N=C(c2ccccn2)N1		HepG2.2.15		12–25 µM
CCC[C@H](Nc1nc(-c2ccc(NC(=O)NCC)c(OC)c2)ncc1C)c1cccnc1	Genotype D	HepG2 2.2.15	ELISA	0.08 µM
N#Cc1cccc(-n2c(C(=O)NCc3ccccc3)c3n(c2=O)CCN(C(=O)c2ccc(Br)c(Cl)c2)C3)c1		HepG2.117	PCR	0.5–5 µM
C[C@@H]1Cc2c(n3ncc(Cc4ccccc4)c3n(-c3ccc(-c4n[nH]c(C(F)(F)F)n4)cc3)c2=O)CN1C(=O)c1ccc(Br)c(C(F)(F)F)c1		HepG2.117	luminescence	≤0.05 µM
CC1=CC(c2ccccc2Cl)N=C(c2ccccn2)N1		HepG2.2.15		>50 µM
O=C(O)c1cc2c(n(C3CC3)c1=O)-c1cc(Cl)c(OC[C@@H]3CCCO3)cc1S(=O)(=O)C2		Primary human hepatocytes	antigen / visual reading / absorbance	0.05–0.1 µM
O=c1c(-c2cc(CO)n(-c3ccc(Br)cc3)n2)nc2ccccc2n1CC(Br)CBr		HepG2 2.2.15	ELISA	0.21 µM
CC1=C(C(=O)NC2CC2)C(c2ccccc2Cl)N=C(c2ccccn2)N1		HepG2.2.15		>100 µM
C[C@@H]1Cc2nn3c(c2CN1C(=O)c1ccc(Cl)c(C#N)c1)C(=O)N([C@@H](C)c1cccc(NS(C)(=O)=O)c1)CC3		HepG2.117	PCR	0.24 µM
Cc1cnn(-c2ccc(-n3c(=O)c4c(n5ncc(CC(C)C)c35)CN(C(=O)c3ccc(Br)c(C(F)(F)F)c3)[C@H](C)C4)cc2)n1		HepG2.117	luminescence	≤0.05 µM
C[C@@H]1Cc2nn3c(c2CN1C(=O)c1ccc(Cl)c(C#N)c1)C(=O)N([C@H](C)c1cccc(NS(C)(=O)=O)c1)CC3		HepG2.117	PCR	0.442 µM
C=CCn1c(=O)c(-c2cc(COC(C)=O)n(-c3ccccc3)n2)nc2ccccc21		HepG2 2.2.15	ELISA	0.33 µM
COCCCOc1cc2c(cc1C1CCC1)-c1c(cc(C(=O)O)c(=O)n1C1CC1)C(C)S2(=O)=O		Primary human hepatocytes	antigen / visual reading / absorbance	0.1–0.5 µM
COc1ccc(-n2c(C(=O)NCc3ccc(Cl)c(OC)c3)c3n(c2=O)CCN(C(=O)c2ccc(Br)c(Cl)c2)C3)cc1		HepG2.117	PCR	0.5–5 µM
CC1c2cc(C(=O)O)c(=O)n(C3CC3)c2-c2cc(Cl)c(OC[C@@H]3CCCO3)cc2S1(=O)=O		Primary human hepatocytes	antigen / visual reading / absorbance	0.1–0.5 µM
COC(=O)C1=C(CN2CC(F)(F)[C@H]3[C@@H]2CCN3C[C@@H](F)C(C)(C)C(=O)O)NC(c2nc(C)cs2)=N[C@H]1c1cccc(F)c1Cl		HepG2.2.15	PCR	0.001 µM

Repeating the final 6 entries:

{"structure": "C[C@@H]1Cc2nn3c(c2CN1C(=O)c1ccc(Cl)c(C#N)c1)C(=O)N([C@H](C)c1cccc(NS(C)(=O)=O)c1)CC3", "cells": "HepG2.117", "method": "PCR", "value": "0.442 µM"}
{"structure": "C=CCn1c(=O)c(-c2cc(COC(C)=O)n(-c3ccccc3)n2)nc2ccccc21", "cells": "HepG2 2.2.15", "method": "ELISA", "value": "0.33 µM"}
{"structure": "COCCCOc1cc2c(cc1C1CCC1)-c1c(cc(C(=O)O)c(=O)n1C1CC1)C(C)S2(=O)=O", "cells": "Primary human hepatocytes", "method": "antigen / visual reading / absorbance", "value": "0.1–0.5 µM"}
{"structure": "COc1ccc(-n2c(C(=O)NCc3ccc(Cl)c(OC)c3)c3n(c2=O)CCN(C(=O)c2ccc(Br)c(Cl)c2)C3)cc1", "cells": "HepG2.117", "method": "PCR", "value": "0.5–5 µM"}
{"structure": "CC1c2cc(C(=O)O)c(=O)n(C3CC3)c2-c2cc(Cl)c(OC[C@@H]3CCCO3)cc2S1(=O)=O", "cells": "Primary human hepatocytes", "method": "antigen / visual reading / absorbance", "value": "0.1–0.5 µM"}
{"structure": "COC(=O)C1=C(CN2CC(F)(F)[C@H]3[C@@H]2CCN3C[C@@H](F)C(C)(C)C(=O)O)NC(c2nc(C)cs2)=N[C@H]1c1cccc(F)c1Cl", "cells": "HepG2.2.15", "method": "PCR", "value": "0.001 µM"}

ECn is the concentration giving n% inhibition of infection, replication or growth. Blank or dashed fields: not listed here. a–b is a range or a potency band.